Results of unrelated studies side by side (data: NIAID ChemDB).

Shared fields: whole-cell or culture tests; agent: Cowpox virus; endpoint: EC50

ECn is the concentration giving n% inhibition of infection, replication or growth. Rows are shuffled and stem from different studies. Blank or dashed fields: not listed here.

smiles,strain or isolate,cell line,value
Cc1cc(C)nc(NS(=O)(=O)c2ccc(N=C3C(=O)Nc4ccc(F)cc43)cc2)n1,-,HFF,>60 µM
Nc1ccn([C@@H]2C=C(CO)[C@@H](O)[C@H]2O)c(=O)n1,CPX,VERO,0.05 µg/mL
Nc1ccn(C[C@@H](CO)OCP(=O)(O)O)c(=O)n1,Brighton,C1271,1 µM
CO[C@H]1[C@@H](O)[C@H](n2cnc3c(N)ncnc32)O[C@@H]1CO,Brighton,C1271,4.9 µM
O=c1[nH]cnc2c1ncn2[C@@H]1C=C(CO)[C@@H](O)[C@H]1O,CPX,VERO,>100 µg/mL
CN[C@H]1C[C@@H](n2cnc3c(N)ncnc32)[C@H](O)[C@@H]1O,-,HFF,>100 µg/mL
CC(=O)N1C(=O)C(=Nc2ccc(S(=O)(=O)Nc3nc(C)cc(C)n3)cc2)c2cc(Cl)ccc21,-,HFF,>300 µM
Nc1nc2c(ncn2CCOCP(=O)(O)O)c(=O)[nH]1,Brighton,HFF,10.6 µM
Nc1ccn(C[C@H]2COP(=O)(O)CO2)c(=O)n1,-,VERO,26.9 µg/mL
Nc1nc2c(ncn2[C@@H]2O[C@H](CO)[C@@H](O)[C@@H]2O)c(=O)[nH]1,Brighton,VERO,197 µM
Nc1nc(=O)n([C@@H]2C=C(CO)[C@@H](O)[C@H]2O)cc1Br,Brighton,-,100 µg/mL
Cn1c(O)c(N=NC(N)=S)c2ccccc21,-,VERO,49.2 µg/mL
Cc1ccc2c(c1)C(=Nc1ccc(S(=O)(=O)Nc3nc(C)cc(C)n3)cc1)C(=O)N2,-,HFF,96 µM
Nc1nccc2c1ncn2[C@@H]1C[C@H](CO)[C@@H](O)[C@H]1O,-,LLC-MK2,25.2 µg/mL
Nc1ncnc2c1ncn2[C@@H]1O[C@H](CO)[C@@H](O)[C@@H]1O,Brighton,C1271,0.9 µM
Nc1ccn(C[C@@H](CO)OCP(=O)(O)O)c(=O)n1,-,VERO,7.5 µg/mL
Nc1ccn([C@@H]2C=C(CO)[C@@H](O)[C@H]2O)c(=O)n1,Brighton,-,0.06 µg/mL

The last 2 rows once more:

smiles	strain or isolate	cell line	value
Nc1ccn(C[C@@H](CO)OCP(=O)(O)O)c(=O)n1	-	VERO	7.5 µg/mL
Nc1ccn([C@@H]2C=C(CO)[C@@H](O)[C@H]2O)c(=O)n1	Brighton	-	0.06 µg/mL